# According to US12569478B2 (priority 2021, dated 2026):
# Experiments:
# [1] = tested on: rats administered fentanyl; conditions: Compound A 0.5, 1, 10, 50 mg/kg 12-15 minutes after start of fentanyl infusion, each dose vs preceding lower dose, p<0.001; cited from earlier work
# [2] = tested on: African green monkeys exposed to carfentanil and methamphetamine; experiment: Carfentanil and methamphetamine intoxication in African green monkeys (Example 3); conditions: Compound A 100 mg/kg or 200 mg/kg and naloxone; paper example
smiles,measurement,setting,value
C[C@]12N3Cc4c(OCCCS(=O)(=O)O)ccc(OCCCS(=O)(=O)O)c4CN1C(=O)N1CN4C(=O)N5CN6C(=O)N7CN8C(=O)N9Cc%10c(OCCCS(=O)(=O)O)ccc(OCCCS(=O)(=O)O)c%10CN%10C(=O)N(CN%11C(=O)N(CN%12C(=O)N(CN(C3=O)[C@]12C)[C@@H]4[C@H]%125)[C@@H]6[C@H]%117)[C@]8(C)[C@@]9%10C,minute ventilation (percent from pre-fentanyl baseline),[1],significant improvement in minute ventilation
same,attenuation of carfentanil/methamphetamine induced respiratory depression,[2],may be sufficient
